From PMC11459959, “Discovery of new acetamide derivatives of 5-indole-1,3,4-oxadiazol-2-thiol as inhibitors of HIV-1 Tat-mediated viral transcription” (Antimicrobial Agents and Chemotherapy, 2024)
Read-outs that look alike come from different tables or passages of the source.

Columns and labels:
[1] = test system: NRTI-resistant HIV-1 strain 7396; assay type: cell-based; conditions: NRTI-resistant 7396, TZM-bl
Description: (§1) Fig 7 (A–C) TZM-bl cells (1 × 10^4 cells/well) cultured in a 96-well plate were treated with fivefold serial dilutions of the indicated compound or ARV for 1 h before infection with the HIV-1NL4-3 or ARV-resistant HIV-1 strains at an MOI of 1, respectively. At 48 h after infection, the EC50 values were determined using an F-Luc activity. The symbols represent the fold-change values of EC50 against each mutant virus relative to the wild-type (WT) virus. (D) PBMCs (5 × 10^4 cells/well) were infected with the HIV-1NL4-3 and PIs-resistant HIV-1 strain at an MOI of 0.1, respectively. Subsequently, the PBMCs were treated with 10-fold serial dilutions of the indicated compounds or PI. At 3 days after infection, the EC50 values on the viral replication were determined using a p24 […] assay kit. (E) The inhibitory kinetics for the WT and ARV-resistant viruses. TZM-bl cells infected with WT or ARV-resistant viruses were cultured upon fivefold serial dilutions of each compound for 2 days and the infectivity was determined using an F-Luc activity.
(§2) The Tzm-bl-derived dual Tat reporter; TZM-bl/Tat/Rluc (bl-DTR) cells were established from TZM-bl cells using two Dox-inducible lentiviral expression cassettes cloned with Flag-tagged Tat86 and the R-Luc gene, as described in our previous study ([11]). TZM-bl, A3.01, J1.1, and J-Lat 6.3 cells as well as the HIV-1 molecular clone pNL4-3, pNL(AD8), ARV-resistant HIV-1 strains, and HIV-1NL43-IRES-eGFP (pBR43IeG-nef^+, gifted by Dr. Frank Kirchhoff) ([52]) were provided by the National Institute of Health HIV Reagent Program (NIH, Bethesda, MD, USA). HeLa (CCL-2) and 293T (CRL-3216) cell lines were purchased from the American Type Culture Collection (ATCC, Manassas, VA, USA). The bl-DTR, TZM-bl, HeLa, and 293T cells were cultured in Dulbecco’s modified Eagle’s medium supplemented with 1% penicillin–streptomycin and 10% (vol/vol) heat-inactivated fetal bovine serum (all from Gibco-BRL, Gaithersburg, MD, USA), and 1 µg/mL of puromycin and 200 µg/mL of zeocin were additionally supplemented for the bl-DTR cells. PBMCs were purchased from AllCells (Alameda, CA, USA) and cultured as previously described ([12]). The information on ARV-resistant HIV-1 strains was described in previous reports as follows: NNRTI-resistant 12241 and 12243 ([53]); NRTI-resistant 7396, 7406, and 7407 ([54]); INSTI-resistant 11847 and 11849 ([55], [56]); and PI-resistant 11800 and 11803 ([57]). Each molecular HIV-1 clone was transfected to 293T cells, as previously described ([58]), to obtain infectious HIV-1 particles. Virus-containing cell culture supernatants were collected 3 days after transfection, and filtered through a 0.45-µm membrane filter (Millipore Sigma, Burlington, MA, USA) to remove cell debris. The viral titration was performed as described previously ([59]) with some minor modifications. In brief, 1 × 10^4 TZM-bl cells seeded in 96-well plates were infected with 200 µL of virus-containing medium diluted serially twofold. The incubation was for 2 days and the experiment was performed in triplicate; the infection time minimized the virus spread ([59]). The titration of the infectious viral particles was performed with a ß-Gal staining assay using the ßeta-Galactosidase Staining Kit (Mirus Bio, Madison, WI, USA) following the manufacturer’s protocols. In brief, the infected cells were washed with phosphate-buffered saline (PBS) and fixed using a Cell Fixative Working solution. The cells were washed with PBS and stained using the Cell Staining Working Solution containing X-gal. The infected blue-colored cells were counted under a microscope (100× magnification). The infectious virus titer was determined as a mean value of blue-colored cells count × dilution factor and used for determining the multiplicity of infection (MOI) in each infection experiment.

[2] = test system: NRTI-resistant HIV-1 strain 7406; assay type: cell-based; conditions: NRTI-resistant 7406, TZM-bl
Description: as §1, §2

[3] = test system: NRTI-resistant HIV-1 strain 7407; assay type: cell-based; conditions: NRTI-resistant 7407, TZM-bl
Description: as §1, §2

[4] = test system: INSTI-resistant HIV-1 strain 11847; assay type: cell-based; conditions: INSTI-resistant 11847, TZM-bl
Description: as §1, §2

[5] = test system: INSTI-resistant HIV-1 strain 11849; assay type: cell-based; conditions: INSTI-resistant 11849, TZM-bl
Description: as §1, §2

[6] = test system: NNRTI-resistant HIV-1 strain 12241; assay type: cell-based; conditions: NNRTI-resistant 12241, TZM-bl
Description: as §1, §2

[7] = test system: NNRTI-resistant HIV-1 strain 12243; assay type: cell-based; conditions: NNRTI-resistant 12243, TZM-bl
Description: as §1, §2

[8] = test system: PI-resistant HIV-1 strain 11800; assay type: cell-based; conditions: PI-resistant 11800, TZM-bl
Description: as §1, §2

[9] = test system: PI-resistant HIV-1 strain 11803; assay type: cell-based; conditions: PI-resistant 11803, TZM-bl
Description: as §1, §2

[10] = test system: PI-resistant HIV-1 strain 11800; assay type: cell-based; conditions: PI-resistant 11800, PBMCs
Source text: as §2
(§3) The inhibitory effects of the compounds on viral replication were determined with some minor modifications, as previously described ([12], [62]). […] PBMCs (4 × 10^5) pre-activated with PHA-M for 3 days were washed with fresh media to remove excess PHA-M and subsequently infected with HIV-1NL4-3 or HIV-1AD8 or PIs-resistant HIV-1 strains as A3.01 infection. After infection, the infectious media were replaced with fresh media supplemented with international 10 units (IU)/mL of IL-2 and the indicated compounds. At 72 h after infection, the inhibitory effect of the compounds on viral replication was determined by measuring the p24 amount, an HIV capsid protein, using an HIV-1 p24 […] kit (PerkinElmer, Waltham, MA, USA). Cell viability was determined as described above. The inhibitory effects on provirus reversing in J1.1 and J-Lat 6.3 cells were determined as previously described ([12], [41], [63]) with some minor modifications.

[11] = test system: PI-resistant HIV-1 strain 11803; assay type: cell-based; conditions: PI-resistant 11803, PBMCs
Source text: as §2, §3

[12] = test system: NRTI-resistant HIV-1 strains; conditions: range over three NRTI-resistant strains, relative to wild type, TZM-bl

| Structure (SMILES) | FC (mutant EC50 / WT EC50) [1] | FC (mutant EC50 / WT EC50) [2] | FC (mutant EC50 / WT EC50) [3] | FC (mutant EC50 / WT EC50) [4] | FC (mutant EC50 / WT EC50) [5] | FC (mutant EC50 / WT EC50) [6] | FC (mutant EC50 / WT EC50) [7] | FC (mutant EC50 / WT EC50) [10] | FC (mutant EC50 / WT EC50) [11] | other results |
| --- | --- | --- | --- | --- | --- | --- | --- | --- | --- | --- |
| Nc1nc(NC2CC2)c2ncn([C@H]3C=C[C@@H](CO)C3)c2n1 [ABC, abacavir] | 1.83 | >8.17 | >8.17 |  |  |  |  |  |  |  |
| Cc1cn([C@H]2C[C@H](N=[N+]=[N-])[C@@H](CO)O2)c(=O)[nH]c1=O [AZT, zidovudine] | 149.27 |  | >909.09 |  |  |  |  |  |  |  |
| Nc1ccn([C@@H]2CS[C@H](CO)O2)c(=O)n1 [Compound 3TC, lamivudine] | 2.96 | >81.3 | >81.3 |  |  |  |  |  |  |  |
| Cc1[nH]c2ccc(-c3nnc(SCC(=O)N4CCCCC4)o3)cc2c1C [Compound 9, 2-((5-(2,3-Dimethyl-1H-indol-5-yl)-1,3,4-oxadiazol-2-yl)thio)-1-(piperidin-1-yl)ethan-1-one] | 0.52 | 0.65 | 0.52 | 0.56 | 0.58 | 0.56 | 0.49 | 5.4 | 2.6 | FC (mutant EC50 / WT EC50) [8]: 0.63; FC (mutant EC50 / WT EC50) [9]: 0.56; fold change of EC50 against NRTI-resistant viruses [12]: 0.52–0.93 |
| Cc1[nH]c2ccc(-c3nnc(SCC(=O)N4CCCC4)o3)cc2c1C [Compound 13, 2-((5-(2,3-Dimethyl-1H-indol-5-yl)-1,3,4-oxadiazol-2-yl)thio)-1-(pyrrolidin-1-yl)ethan-1-one] | 0.76 | 0.80 | 0.93 | 0.69 | 1.16 | 0.99 | 0.90 | 7.8 | 2.7 | FC (mutant EC50 / WT EC50) [8]: 0.64; FC (mutant EC50 / WT EC50) [9]: 0.80; fold change of EC50 against NRTI-resistant viruses [12]: 0.52–0.93 |
| CC(C)CN(C[C@@H](O)[C@H](Cc1ccccc1)NC(=O)O[C@H]1CO[C@H]2OCC[C@H]21)S(=O)(=O)c1ccc(N)cc1 [DRV, darunavir] |  |  |  |  |  |  |  | >1000 | >1000 |  |
| C[C@@H]1CCO[C@H]2Cn3cc(C(=O)NCc4ccc(F)cc4F)c(=O)c(O)c3C(=O)N12 [DTG, dolutegravir, reference compound] |  |  |  | 13.75 | 9.92 |  |  |  |  |  |
| O=C1Nc2ccc(Cl)cc2[C@@](C#CC2CC2)(C(F)(F)F)O1 [EFV, efavirenz, reference compound] |  |  |  |  |  | >1000 | >1000 |  |  |  |
| Cc1c(O)cccc1C(=O)N[C@@H](CSc1ccccc1)[C@H](O)CN1C[C@H]2CCCC[C@H]2C[C@H]1C(=O)NC(C)(C)C [NFV, nelfiravir] |  |  |  |  |  |  |  | >1000 | >1000 |  |
| Cc1ccnc2c1NC(=O)c1cccnc1N2C1CC1 [NVP, nevirapine, reference compound] |  |  |  |  |  | >1000 | 398.5 |  |  |  |
| Cc1nnc(C(=O)NC(C)(C)c2nc(C(=O)NCc3ccc(F)cc3)c(O)c(=O)n2C)o1 [RAL, raltegravir, reference compound] |  |  |  | >1000 | >1000 |  |  |  |  |  |
| CC(C)(C)NC(=O)[C@@H]1C[C@@H]2CCCC[C@@H]2CN1C[C@@H](O)[C@H](Cc1ccccc1)NC(=O)[C@H](CC(N)=O)NC(=O)c1ccc2ccccc2n1 [SQV, sequinavir] |  |  |  |  |  |  |  | 0.68 | 150.93 |  |
